Structures are written as SMILES. The amount applied is not stated for every result.

Data on 29 molecules can be found in US9617289B2, “RSV antiviral compounds” (JANSSEN R&D IRELAND, priority 2012, dated 2017).

The series deals with HeLa cells. The series can be described thus: Cytotoxicity in HeLa cells (ATP content, ATPlite kit); SI calculated as CC50/EC50. The class given is cell-based. As to conditions: SI is calculated as CC50/EC50, three days.

As to `CC(C)(O)C(=O)N1CCC2(CC1)C(=O)N(Cc1cc3cc(Cl)ccc3n1CCCC#N)c1cnccc12` [Compound 86, 4-(5-chloro-2-((1-(2-hydroxy-2-methylpropanoyl)-2′-oxospiro[piperidine-4,3′-pyrrolo[2,3-c]pyridin]-1′(2′H)-yl)methyl)-1H-indol-1-yl)butanenitrile], the SI is given as more than 349849.
In the case of `CC(=O)NS(=O)(=O)N1CC2(C1)C(=O)N(Cc1cc3cc(Cl)ccc3n1CCCC#N)c1ccccc12` [Compound 117, N-[(1′-{[5-Chloro-1-(3-cyanopropyl)-1H-indol-2-yl]methyl}-2′-oxo-1′,2′-dihydro-1H-spiro[azetidine-3,3′-indol]-1-yl)sulfonyl]acetamide], the SI_TOX-HELA_wt is 6595.
With `CC(C)(C)OC(=O)N1CCC2(CC1)C(=O)N(Cc1c(C(N)=O)c3cc(Cl)ccc3n1CCCCF)c1cnccc12` [Compound 156, tert-Butyl 1′-{[3-carbamoyl-5-chloro-1-(4-fluorobutyl)-1H-indol-2-yl]methyl}-2′-oxo-1′,2′-dihydro-1H-spiro[piperidine-4,3′-pyrrolo[2,3-c]pyridine]-1-carboxylate], the SI_TOX-HELA_wt is 178008.
For `N#CCCCn1c(CN2C(=O)C3(CN(S(=O)(=O)C4CC4)C3)c3ccccc32)cc2cc(Cl)ccc21` [Compound 61, 4-(5-chloro-2-{[1-(cyclopropylsulfonyl)-2′-oxospiro-[azetidine-3,3′-indol]-1′(2′H)-yl]methyl}-1H-indol-1-yl)-butanenitrile], the SI is more than 241324.
On to `N#CCCCn1c(CN2C(=O)C3(CN(C(=O)OC4COC4)C3)c3ccccc32)nc2cc(Cl)ccc21` [Compound 92, Oxetan-3-yl 1′-{[5-chloro-1-(3-cyanopropyl)-1H-benzimidazol-2-yl]methyl}-2′-oxo-1′,2′-dihydro-1H-spiro[azetidine-3,3′-indole]-1-carboxylate], for which the SI_TOX-HELA_wt was more than 1.435e+006.
For the molecule `CC(C)(C)OC(=O)N1CCC2(CC1)C(=O)N(Cc1cc3nc(Cl)ccc3n1CCCCF)c1cnccc12` [Compound 69, tert-butyl 1′-((5-chloro-1-(4-fluorobutyl)-1H-pyrrolo[3,2-b]-pyridin-2-yl)methy)-2′-oxo-1′,2′-dihydrospiro[piperidine-4,3′-pyrrolo[2,3-c]pyridine]-1-carboxylate], the SI is listed as 4891.
On to `CC(C)(O)C(=O)N1CC2(C1)C(=O)N(Cc1cc3cc(Cl)ccc3n1CCCCO)c1ccccc12` [Compound 166, 1′-{[5-Chloro-1-(4-hydroxybutyl)-1H-indol-2-yl]methyl}-1-(2-hydroxy-2-methylpropanoyl)spiro[azetidine-3,3′-indol]-2′(1′H)-one], for which the SI_TOX-HELA_wt is listed as 64805.
`CC(=O)N1CCC2(CC1)C(=O)N(Cc1nc3cc(Cl)ccc3n1CCCS(C)(=O)=O)c1ccccc12` [Compound 32, 1′-acetyl-1-({5-chloro-1-[3-(methylsulfonyl)propyl]-1H-benzimidazol-2-yl}methyl)spiro[indole-3,4′-piperidin]-2(1H)-one]: the SI is more than 147839.
Regarding `N#CCCCn1c(CN2C(=O)C3(CCN(S(N)(=O)=O)CC3)c3ccncc32)nc2cc(Cl)ccc21` [Compound 89, 1′-((5-chloro-1-(3-cyanopropyl)-1H-benzo[d]imidazol-2-yl)-methyl)-2′-oxo-1′,2′-dihydrospiro[piperidine-4,3′-pyrrolo-[2,3-c]pyridine]-1-sulfonamide], the SI is reported as more than 124385.
As to `N#CCCCn1c(CN2C(=O)C3(CC(O)C3)c3ccccc32)nc2cc(Cl)ccc21` (centres unmarked) [Compound 109, 4-{5-Chloro-2-[(3-hydroxy-2′-oxospiro[cyclobutane-1,3′-indol]-1′(2′H)-yl)methyl]-1H-benzimidazol-1-yl}butanenitrile], the SI_TOX-HELA_wt is more than 523866.
Regarding `CS(=O)(=O)CCCn1c(CN2C(=O)C3(CN(c4cccnc4)C3)c3ccccc32)nc2cc(Cl)ccc21` [Compound 7, 1′-({5-chloro-1-[3-(methylsulfonyl)propyl]-1H-benzimidazol-2-yl}methyl)-1-(pyridin-3-yl)spiro[azetidine-3,3′-indol]-2′(1′H)-one], the SI is more than 3.591e+006.
With `N#CCCCn1c(CN2C(=O)C3(CN(S(=O)(=O)C4CC4)C3)c3ccccc32)nc2cc(Cl)ccc21` [Compound 180, 4-(5-Chloro-2-{[1-(cyclopropylsulfonyl)-2′-oxospiro[azetidine-3,3′-indol]-1′(2′H)-yl]methyl}-1H-benzimidazol-1-yl)butanenitrile], the SI_TOX-HELA_wt is given as more than 847754.
For the molecule `N#CCCCn1c(CN2C(=O)C3(CCN(S(=O)(=O)C4CC4)CC3)c3ccncc32)nc2cc(Cl)ccc21` [Compound 112, 4-(5-Chloro-2-{[1-(cyclopropylsulfonyl)-2′-oxospiro-[piperidine-4,3′-pyrrolo[2,3-c]pyridin]-1′(2′H)-yl]methyl}-1H-benzimidazol-1-yl)butanenitrile], the SI_TOX-HELA_wt was more than 3.969e+006.
As for `CCOP(=O)(OCC)N1CCC2(CC1)C(=O)N(Cc1nc3cc(Cl)ccc3n1CCCC#N)c1cnccc12` [Compound 115, Diethyl (1′-{[5-chloro-1-(3-cyanopropyl)-1H-benzimidazol-2-yl]methyl}-2′-oxo-1′,2′-dihydro-1H-spiro[piperidine-4,3′-pyrrolo[2,3-c]pyridin]-1-yl)phosphonate], the SI_TOX-HELA_wt is more than 1.455e+006.
For the molecule `CC(C)NC(=O)N[C@H]1C[C@]2(C1)C(=O)N(Cc1nc3cc(Cl)ccc3n1CCCC#N)c1ccccc12` [Compound 143, 1-((1s,3s)-1′-((5-chloro-1-(3-cyanopropyl)-1H-benzo[d]imidazol-2-yl)methyl)-2′-oxospiro[cyclobutane-1,3′-indolin]-3-yl)-3-isopropylurea], the SI_TOX-HELA_wt is recorded as more than 30292.8.
Consider `CC(=O)N1CC2(C1)C(=O)N(Cc1cc3cc(Cl)ccc3n1CCCC#N)c1ccccc12` [Compound 62, 4-{2-[(1-acetyl-2′-oxospiro[azetidine-3,3′-indol]-1′(2′H)-yl)-methyl]-5-chloro-1H-indol-l-yl}butanenitrile], for which the SI was 46732.
For the molecule `O=C1N(Cc2cc3cc(Cl)ccc3n2CCCCF)c2cnccc2C12CCNCC2` [Compound 162], the SI_TOX-HELA_wt is listed as 2405.
As for `CS(=O)(=O)CCCn1c(CN2C(=O)C3(CCOCC3)c3cc(F)ccc32)nc2cc(Cl)ccc21` [Compound 19], the SI is more than 21417.6.
`CC(O)(C(=O)N1CCC2(CC1)C(=O)N(Cc1nc3cc(Cl)ccc3n1CCCC#N)c1cnccc12)C(F)(F)F` (centres unmarked) [Compound 116, 4-(5-Chloro-2-{[2′-oxo-1-(3,3,3-trifluoro-2-hydroxy-2-methylpropanoyl)spiro[piperidine-4,3′-pyrrolo[2,3-c]pyridin]-1′(2′H)-yl]methyl}-1H-benzimidazol-1-yl)butanenitrile]: the SI_TOX-HELA_wt is given as more than 1.42e+006.
Still for that read-out and setting: the value for `CC(=O)NS(=O)(=O)N1CCC2(CC1)C(=O)N(Cc1nc3cc(Cl)ccc3n1CCCC#N)c1cnccc12` [Compound 95, N-[(1′-{[5-Chloro-1-(3-cyanopropyl)-1H-benzimidazol-2-yl]methyl}-2′-oxo-1′,2′-dihydro-1H-spiro[piperidine-4,3′-pyrrolo[2,3-c]pyridin]-1-yl)sulfonyl]acetamide] was more than 1.255e+006.
As to `O=C1N(Cc2nc3nc(Cl)ccc3n2CCCC(F)(F)F)c2cnccc2C12CCCC2` [Compound 65, 1′-((5-chloro-1-(4,4,4-trifluorobutyl)-1H-imidazo[4,5-b]-pyridin-2-yl)methyl)spiro[cyclopentane-l,3′-pyrrolo[2,3-c]-pyridin]-2′(1′H)-one], the SI was 158245.
As to `CC(C)C(=O)N1CC2(C1)C(=O)N(Cc1nc3cc(Cl)ccc3n1CCCS(C)(=O)=O)c1ccccc12` [Compound 28, 1′-({5-chloro-1-[3-(methylsulfonyl)propyl]-1H-benzimidazol-2-yl}methyl)-1-(2-methylpropanoyl)-spiro[azetidine-3,3′-indol]-2′(1′H)-one], the SI is recorded as more than 660861.
In the case of `CC(C)OC(=O)N1CCC2(CC1)C(=O)N(Cc1nc3cc(Cl)ccc3n1CCCC#N)c1cnccc12` [Compound 99, 1-Methylethyl 1′-{[5-chloro-1-(3-cyanopropyl)-1H-benzimidazol-2-yl]methyl}-2′-oxo-1′,2′-dihydro-1H-spiro[piperidine-4,3′-pyrrolo[2,3-c]pyridine]-1-carboxylate], the SI_TOX-HELA_wt is given as 2437755.
For `O=C(Oc1ccc(F)cc1)N1CC2(C1)C(=O)N(Cc1nc3cc(Cl)ccc3n1CCCC(F)(F)F)c1ccccc12` [Compound 43, 4-fluorophenyl 1′-((5-chloro-1-(4,4,4-trifluorobutyl)-1H-benzo[d]imidazol-2-yl)methyl)-2′-oxospiro[azetidine-3,3′-indoline]-1-carboxytale], the SI is on record as more than 419527.
As to `N#CCCCn1c(CN2C(=O)C3(CNC3)c3ccccc32)nc2cc(Cl)ccc21` [Compound 101, 4-{5-Chloro-2-[(2′-oxospiro[azetidine-3,3′-indol]-1′(2′H)-yl)methyl]-1H-benzimidazol-1-yl}butanenitrile], the SI_TOX-HELA_wt was more than 111491.
`CC(C)(C)OC(=O)N1CCC2(CC1)C(=O)N(Cc1nc3cc(Cl)ccc3n1CCCC(F)(F)F)c1ccccc12` [Compound 48]: the SI is more than 43054.6.
On to `CC(=O)N1CCC2(CC1)C(=O)N(Cc1nc3cc(Cl)ccc3n1CCCC#N)c1cnccc12` [Compound 83, 4-(2-((1-acetyl-2′-oxospiro[piperidine-4,3′-pyrrolo[2,3-c]-pyridin]-1′(2′H)-yl)methyl)-5-chloro-1H-benzo[d]imidazol-1-yl)butanenitrile], for which the SI is on record as more than 655360.
`N#CCCCn1c(CN2C(=O)C3(CCN(C(=O)OC4CCC4)CC3)c3ccncc32)cc2cc(Cl)ccc21` [Compound 103, Cyclobutyl 1′-{[5-chloro-1-(3-cyanopropyl)-1H-indol-2-yl]-methyl}-2′-oxo-1′,2′-dihydro-1H-spiro[piperidine-4,3′-pyrrolo[2,3-c]pyridine]-1-carboxylate]: the SI_TOX-HELA_wt is 76392.
Still for that read-out and setting: the value for `CC(C)(C)OC(=O)N1CC2(C1)C(=O)N(Cc1cc3cc(Cl)ccc3n1CCCS(C)(=O)=O)c1ccccc12` [Compound 163, tert-Butyl 1′-({5-chloro-1-[3-(methylsulfonyl)propyl]-1H-indol-2-yl}methyl)-2′-oxo-1′,2′-dihydro-1H-spiro[azetidine-3,3′-indole]-1-carboxylate] was 95825.
